Measurements from patent publication US20050272055A1 (priority 2000, published 2005).

Test system: TNF-α
Assay: SEB-induced TNF-alpha induction in human lymphoid cells
Format: cell-based
Details: PKC inhibitors, dose 10 uM

For COc1ccc2c(c[n+](C)c3c4cc5c(cc4ccc23)OCO5)c1OC [Chelerythrine], the “effect on production of eicosanoids and neuropeptides” value was “blocked production of eicosanoids and neuropeptides”.
